{
  "sequences": {"note": "Protein sequences, listed by entry. Tags and fused reporters are not part of them.", "UniProt P61586, whole entry, looked up": "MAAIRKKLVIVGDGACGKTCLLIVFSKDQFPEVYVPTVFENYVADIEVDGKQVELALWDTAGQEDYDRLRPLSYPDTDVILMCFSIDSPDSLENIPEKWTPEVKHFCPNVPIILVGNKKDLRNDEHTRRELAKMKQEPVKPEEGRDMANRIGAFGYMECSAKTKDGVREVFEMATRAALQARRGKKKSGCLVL"},
  "source": "patent US7807400B2",
  "about": "“Methods for identifying chemical modulators of Ras superfamily GTPase activity” (The University of North Carolina at Chapel Hill, priority 2004, dated 2010)",
  "target": "Dbs-mediated activation of RhoA (Homo sapiens, UniProt P61586)",
  "test": "fluorescence guanine nucleotide exchange reaction, Dbs-mediated activation of RhoA",
  "type": "biochemical",
  "settings": "fluorescence after addition of GEF, versus DMSO vehicle control",
  "data": [
    {"smiles": "O=[As]c1ccccc1", "note": "(stereo not shown)", "values": [
      {"measurement": "effect on Dbs-mediated RhoA activation / guanine nucleotide exchange", "result": "inhibits RhoA activation"}
    ]}
  ]
}
